Results deposited as PubChem BioAssay AID1224833 (University of Georgia, 2016).
In all, the deposit lists about 12,000 reagents; this is a part drawn at random. Over the whole deposit, about 5,600 (46%) got an active call. 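Active calls cover z-scores past 1 in both directions, so they include lowered as well as raised rotavirus replication.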 Reagent sequences are not shown.

Assay: 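Host factors restraining rotavirus as candidate antiviral genes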 (primary screen)
System: monkey MA104 kidney cells
Knock-down reagent: siRNA pool against human genes, 50 nM
Time to read-out: 48 h knock-down before infection; read 24 h after infection
Treatment: infection with rotavirus strain RV3 two days after transfection; infectious dose for this stage not given
Measured: 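Rotavirus antigen per well by fluorescent immunoassay, normalised to non-targeting control wells on each plate and given as a standard z-score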
Reading the numbers: z-score vs non-targeting control: higher = more rotavirus replication than with non-targeting control
Hit rule: In these data the active calls have z-score vs non-targeting control at about -1 or lower, or at about 1 or higher
Calls: active = z-score beyond 1 either way; inactive = z-score within 1 of zero

target gene | z-score vs non-targeting control | activity call
TSLIG3A | 2.17 | active
CDY1B | -0.154 | inactive
CD1B | -1.53 | active
FAM76B | -0.982 | inactive
PCED1A | -0.635 | inactive
MAS1 | 0.546 | inactive
NGDN | -1.22 | active
BCL9L | 1.7 | active
ZNF658 | -0.508 | inactive
SOX2 | 1.95 | active
NUCLEOLIN | 0.529 | inactive
CDH16 | -0.817 | inactive
NAGA | -1.14 | active
DOLK | 0.776 | inactive
TIMM22 | -2.13 | active
CALHM2 | -0.638 | inactive
ACTR3B | -1.09 | active
USP10 | 1.61 | active
TMEM44 | -1.88 | active
VWA2 | 0.441 | inactive
DOLPP1 | -5.46 | active
ZNF132 | 2.12 | active
RRAGC | 0.821 | inactive
COL4A4 | 1.1 | active
TSPAN6 | -0.225 | inactive
NAXE | -2.19 | active
TIAM2 | 0.575 | inactive
CHCHD3 | 1.21 | active
UBAC1 | -2.14 | active
DESI2 | -0.285 | inactive
SMN1 | -1.07 | active
ARHGAP29 | -1.27 | active
FAM120AOS | 0.999 | inactive
INTU | 2.83 | active
ANP32E | 0.218 | inactive
MRPL15 | -0.925 | inactive
DTNB | 0.646 | inactive
GUCA2B | 0.814 | inactive
OPHN1 | -0.832 | inactive
SCARB2 | -0.324 | inactive
TSPAN16 | 1.01 | active
TMEM205 | 0.287 | inactive
OLFML3 | 1.32 | active
KRTAP5-7 | -1.78 | active
SCRN3 | -2.09 | active

Entries above whose target name begins with S or s (4):
target gene | z-score vs non-targeting control | activity call
SOX2 | 1.95 | active
SMN1 | -1.07 | active
SCARB2 | -0.324 | inactive
SCRN3 | -2.09 | active

The results go on:
target gene | z-score vs non-targeting control | activity call
BMP8A | -1.77 | active
RPP21 | -2.13 | active
CRABP1 | 0.758 | inactive
FAM50A | -1.26 | active
OR13C8 | -0.542 | inactive
SSX5 | 1.82 | active
DRC12 | -0.472 | inactive
SUN5 | 1.13 | active
ABRA | -0.669 | inactive
RPUSD1 | -1.25 | active
SLC30A9 | 0.537 | inactive
CACHD1 | -0.757 | inactive
OR13C9 | 0.276 | inactive
VCX2 | -0.455 | inactive
OR1A2 | 1.45 | active
OSBPL3 | 0.196 | inactive
HDLBP | -1.41 | active
CACNA2D4 | -0.863 | inactive
CXCL11 | -0.519 | inactive
WNT5A | 0.772 | inactive
DAB1 | -2.6 | active
LRP6 | 1.13 | active
NPHP3 | -1.38 | active
WDR6 | -1.13 | active
LSMEM2 | 1.59 | active
SNED1 | 0.818 | inactive
ETV3L | -0.527 | inactive
ZNF268 | -0.523 | inactive
C11orf16 | -1.06 | active
FMOD | 1.2 | active
